This assay addresses full-length single chain (FLSC) gp120-CD4 chimeric polypeptide (HIV-1 BaL; human).

Consider “full-length single chain (FLSC) gp120-CD4 chimeric polypeptide”, for which the percent of total protein in the 302 kD band after crosslinking is 25% and the percent of total protein in the higher order band after crosslinking was 10%.
